# PubChem BioAssay AID1224833 – University of Georgia, 2016
# Purpose: 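Human genes whose knock-down alters rotavirus replication in monkey cells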 (primary screen)
# Cell system: monkey MA104 kidney cells
# Reagents: siRNA pool against human genes, 50 nM
# Duration: 48 h knock-down before infection; read 24 h after infection
# Conditions: infection with rotavirus strain RV3 two days after transfection; infectious dose for this stage not given
# Read-out: 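Rotavirus antigen per well by fluorescent immunoassay, normalised to non-targeting control wells on each plate and given as a standard z-score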
# Direction: z-score vs non-targeting control: higher = more rotavirus replication than with non-targeting control
# Active means: In these data the active calls have z-score vs non-targeting control at about -1 or lower, or at about 1 or higher
# Calls: active = z-score beyond 1 either way; inactive = z-score within 1 of zero
# The whole screen tested about 12,000 reagents; below is a part drawn at random. About 5,600 of them (46%) were called active. 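Active calls cover z-scores past 1 in both directions, so they include lowered as well as raised rotavirus replication.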 No sequences are given here.
The first 4 entries as a preview:
gene,z-score vs non-targeting control,Outcome
DDX5 (DEAD-box helicase 5),1.53,active
SORBS2 (sorbin and SH3 domain containing 2),0.0099,inactive
KRTAP4-12 (keratin associated protein 4-12),-0.038,inactive
"PPM1N (protein phosphatase, Mg2+/Mn2+ dependent 1N (putative))",-0.824,inactive

The listing, from the first entry:
gene,z-score vs non-targeting control,Outcome
DDX5 (DEAD-box helicase 5),1.53,active
SORBS2 (sorbin and SH3 domain containing 2),0.0099,inactive
KRTAP4-12 (keratin associated protein 4-12),-0.038,inactive
"PPM1N (protein phosphatase, Mg2+/Mn2+ dependent 1N (putative))",-0.824,inactive
SLC6A8,0.787,inactive
ICA1L (islet cell autoantigen 1 like),0.242,inactive
ADAMTSL5 (ADAMTS like 5),2.13,active
SAMD15 (sterile alpha motif domain containing 15),-1.69,active
"P4HTM (prolyl 4-hydroxylase, transmembrane)",-2.07,active
MLEC (malectin),0.465,inactive
NHSL2 (NHS like 2),0.477,inactive
RBMY1B (RNA binding motif protein Y-linked family 1 member B),-0.327,inactive
POM121L2 (POM121 transmembrane nucleoporin like 2),-0.69,inactive
APOBEC3A (apolipoprotein B mRNA editing enzyme catalytic subunit 3A),-1.2,active
EXOSC1 (exosome component 1),0.714,inactive
NNMT (nicotinamide N-methyltransferase),2.46,active
COLEC10 (collectin subfamily member 10),-2.75,active
LINC03124 (long independently transcribed non-coding RNA 3124),0.652,inactive
EPB41L1 (erythrocyte membrane protein band 4.1 like 1),0.78,inactive
SPATA9 (spermatogenesis associated 9),-2.69,active
GARRE1 (granule associated Rac and RHOG effector 1),-0.382,inactive
MEA1 (male-enhanced antigen 1),1.28,active
CRLF2 (cytokine receptor like factor 2),-0.545,inactive
ARSA (arylsulfatase A),0.74,inactive
COL3A1 (collagen type III alpha 1 chain),-0.793,inactive
VAMP3 (vesicle associated membrane protein 3),0.88,inactive
ECRG4 (ECRG4 augurin precursor),-0.244,inactive
IL16 (interleukin 16),0.763,inactive
SYNPO2L (synaptopodin 2 like),-0.825,inactive
ZDHHC13 (zDHHC palmitoyltransferase 13),-0.914,inactive
CANX (calnexin),-0.153,inactive
TBC1D10C (TBC1 domain family member 10C),-0.0407,inactive
PID1 (phosphotyrosine interaction domain containing 1),1.71,active
EEIG1 (estrogen-induced osteoclastogenesis regulator 1),1.65,active
C11orf42 (chromosome 11 open reading frame 42),2.85,active
CDCA7 (cell division cycle associated 7),1.05,active
"ACTG2 (actin gamma 2, smooth muscle)",-1.18,active
MED8 (mediator complex subunit 8),0.777,inactive
SART1,-2.02,active
SLC17A8,-2.32,active
JCHAIN (joining chain of multimeric IgA and IgM),1.77,active
CPEB3 (cytoplasmic polyadenylation element binding protein 3),-1.6,active
ESCO2,1.64,active
PLIN3 (perilipin 3),0.188,inactive
CRTAC1 (cartilage acidic protein 1),0.963,inactive
